Data: PMC6359284 (Molecules, 2019)

Assay: general procedure: Fmoc solid-phase peptide synthesis; NovaSyn TGR resin (0.25 mmol/g); HATU/DIPEA
Conditions: whole synthesis, analytical RP-HPLC

Substance	final HPLC purity [%]
RGDLMKLAK(FB)	>99
RGDLRELAK(FB)	>99
VGDLTYLKK(FB)KVART	>99
